According to patent US20160281050A1, “METHODS FOR TREATING A CULTURE OF HAEMATOCOCCUS PLUVIALIS FOR CONTAMINATION USING SALT AND HYDROGEN PEROXIDE” (HELIAE DEVELOPMENT LLC, priority 2015, published 2016):
Like-named read-outs stand apart in the source and are kept apart here.

Tested on: Haematococcus pluvialis (Strain 2)
Settings: for % Carotenoids (UV): 0.0105 mL/L every 6 hours

For hydrogen peroxide [H2O2], the “Cell Dry Weight” value (0.0105 mL/L H2O2, MP1, day 5) was 0.216 g/L, the “Cell Dry Weight” value (0.0105 mL/L H2O2, MP1, day 6) was 0.283 g/L and the “Cell Dry Weight” value (0.0105 mL/L H2O2, MP1, day 7) was 0.321 g/L. The “Cell Dry Weight” value (0.0105 mL/L H2O2, MP1, day 8) was 0.371 g/L, the “Cell Dry Weight” value (0.0105 mL/L H2O2, MP1, day 9) was 0.349 g/L and the “Cell Dry Weight” value (0.0105 mL/L H2O2, MP1, day 10) was 0.370 g/L. The “Cell Dry Weight” value (0.0105 mL/L H2O2, MP1, day 11) was 0.353 g/L, the “Cell Dry Weight” value (0.0105 mL/L H2O2, MP1, day 12) was 0.357 g/L and the “Cell Dry Weight” value (0.0105 mL/L H2O2, MP1, day 13) was 0.364 g/L. For the same substance, the “Cell Dry Weight” value (0.0105 mL/L H2O2, MP1, day 14) was 0.357 g/L, the “Cell Dry Weight” value (0.0105 mL/L H2O2, MP3, day 5) was 0.190 g/L and the “Cell Dry Weight” value (0.0105 mL/L H2O2, MP3, day 6) was 0.201 g/L. For the same substance, the “Cell Dry Weight” value (0.0105 mL/L H2O2, MP3, day 7) was 0.311 g/L, the “Cell Dry Weight” value (0.0105 mL/L H2O2, MP3, day 8) was 0.412 g/L and the “Cell Dry Weight” value (0.0105 mL/L H2O2, MP3, day 9) was 0.353 g/L. For the same substance, the “Cell Dry Weight” value (0.0105 mL/L H2O2, MP3, day 10) was 0.343 g/L, the “Cell Dry Weight” value (0.0105 mL/L H2O2, MP3, day 11) was 0.349 g/L and the “Cell Dry Weight” value (0.0105 mL/L H2O2, MP3, day 12) was 0.375 g/L. The “Cell Dry Weight” value (0.0105 mL/L H2O2, MP3, day 13) was 0.390 g/L, the “Cell Dry Weight” value (0.0105 mL/L H2O2, MP3, day 14) was 0.427 g/L and the “% Carotenoids (UV)” value (MP1, day 8) was 3.71%. For the same substance, the “% Carotenoids (UV)” value (MP1, day 9) was 4.03%, the “% Carotenoids (UV)” value (MP1, day 10) was 4.44% and the “% Carotenoids (UV)” value (MP1, day 11) was 4.33%. For the same substance, the “% Carotenoids (UV)” value (MP1, day 12) was 3.95%, the “% Carotenoids (UV)” value (MP3, day 8) was 3.77% and the “% Carotenoids (UV)” value (MP3, day 9) was 4.19%. The “% Carotenoids (UV)” value (MP3, day 10) was 4.55%, the “% Carotenoids (UV)” value (MP3, day 11) was 3.74% and the “% Carotenoids (UV)” value (MP3, day 12) was 4.47%.
